Where a name gives a salt, the structure may show the parent alone. Read-outs that look alike come from different tables or passages of the source.
Columns and labels:
SFV = type: cell-based, Semliki Forest virus
DENV-2 = DENV-2 infection assay / secondary screen (E protein staining); type: cell-based, dengue virus serotype 2

## CCN(CC)Cc1cc(Nc2ccnc3cc(Cl)ccc23)ccc1O [Amodiaquine, Amodiaquine dihydrochloride dihydrate]
SFV
  SI: >5.9
DENV-2; TC50/IC50, Huh7, 7 + 17 h
  SI DENV-2 (7 + 17 h): 3.5
DENV-2; TC50/IC50, Huh7, 24 h
  SI DENV-2 (24 h): 1.1

## CC(C)COCC(CN(Cc1ccccc1)c1ccccc1)N1CCCC1 (centres unmarked) [Bepridil, Bepridil hydrochloride]
SFV
  SI: 3.7
  SI SFV (7 h): 3.7
DENV-2; TC50/IC50, Huh7, 7 + 17 h
  SI DENV-2 (7 + 17 h): 3.2
DENV-2; TC50/IC50, Huh7, 24 h
  SI DENV-2 (24 h): 1.9

## CNc1ccc2oc(C[C@H]3O[C@@]4(CC[C@H]3C)O[C@H]([C@H](C)C(=O)c3ccc[nH]3)[C@H](C)C[C@H]4C)nc2c1C(=O)O [Calcimycin]
SFV
  SI: 6.8
  SI SFV (7 h): 6.8
DENV-2
  SI DENV-2 (7 + 17 h): >11.3
  SI DENV-2 (24 h): 17.6

## CCCCN(CCCC)CCC(O)c1cc2c(Cl)cc(Cl)cc2c2cc(C(F)(F)F)ccc12 (centres unmarked) [Halofantrine, Halofantrine hydrochloride]
SFV
  SI: 2.5

## CCOC(=O)C1=C(C)NC(C)=C(C(=O)OCC)C1c1ccccc1/C=C/C(=O)OC(C)(C)C [Lacidipine]
SFV
  SI: 1.2

## O=C1c2c(O)ccc(O)c2C(=O)c2c(NCCNCCO)ccc(NCCNCCO)c21 [Mitoxantrone, Mitoxantrone dihydrochloride]
SFV
  SI SFV (7 h): 6.2
DENV-2; TC50/IC50, Huh7, 7 + 17 h
  SI DENV-2 (7 + 17 h): 4.0
DENV-2; TC50/IC50, Huh7, 24 h
  SI DENV-2 (24 h): 2.2

## CC[C@@]1([C@@H]2O[C@@H]([C@H]3O[C@@](O)(CO)[C@H](C)C[C@@H]3C)C[C@@H]2C)CC[C@H]([C@]2(C)CC[C@]3(C[C@H](O)[C@@H](C)[C@@H]([C@@H](C)[C@@H](OC)[C@H](C)C(=O)O)O3)O2)O1 [Monensin, Monensin sodium salt]
SFV
  SI: >45
  SI SFV (7 h): >45
DENV-2; TC50/IC50, Huh7, 7 + 17 h
  SI DENV-2 (7 + 17 h): >11.1

## Cc1ccc(S(=O)(=O)N[C@@H](Cc2ccccc2)C(=O)CCl)cc1 [N-p-Tosyl-L-PCK, N-p-Tosyl-L-phenylalanine chloromethyl ketone]
DENV-2; TC50/IC50, Huh7, 7 + 17 h
  SI DENV-2 (7 + 17 h): 1.2
DENV-2; TC50/IC50, Huh7, 24 h
  SI DENV-2 (24 h): 4.2

## C=C1C(=O)O[C@H]2[C@H]1CC/C(C)=C/CC[C@@]1(C)O[C@@H]21 [Parthenolide]
SFV
  SI SFV (7 h): 3.5
DENV-2; TC50/IC50, Huh7, 7 + 17 h
  SI DENV-2 (7 + 17 h): 2.9
DENV-2; TC50/IC50, Huh7, 24 h
  SI DENV-2 (24 h): 1.6

## O=C(c1ccc(OCCN2CCCCC2)cc1)c1c(-c2ccc(O)cc2)sc2cc(O)ccc12 [Raloxifene, Raloxifene hydrochloride]
SFV
  SI: >3.3
  SI SFV (7 h): >3.3
DENV-2; TC50/IC50, Huh7, 7 + 17 h
  SI DENV-2 (7 + 17 h): 4.4
DENV-2; TC50/IC50, Huh7, 24 h
  SI DENV-2 (24 h): 2.3

## O=[N+]([O-])c1ccc2c(c1)S(=O)(=O)C=C2 [Stattic]
DENV-2; TC50/IC50, Huh7, 7 + 17 h
  SI DENV-2 (7 + 17 h): 5.8
DENV-2; TC50/IC50, Huh7, 24 h
  SI DENV-2 (24 h): 10.8

## CC(=O)/C=C1\C(=O)N(C)c2ccccc21 [Supercinnamaldehyde]
DENV-2; TC50/IC50, Huh7, 7 + 17 h
  SI DENV-2 (7 + 17 h): 3.9
DENV-2; TC50/IC50, Huh7, 24 h
  SI DENV-2 (24 h): 1.7
